Laboratory results reported in paper PMC12608155, “Discovery of Potential Antileishmanial Compounds Through Phenotypic Screening of an Alkaloid Library” (Molecules, 2025).

What was measured:
RAW 264.7 = experiment: Cytotoxicity in RAW 264.7 cells (alamarBlue, 72 h); settings: calculated between RAW 264.7 cells and intramacrophagic amastigotes
Protocol: (§1) To this end, we calculated SIs from 16 preselected results from the ex vivo system. With this aim, dose–response curves were performed in duplicate across at least three independent experiments using RAW 264.7 mouse macrophages (as a model of host cells harboring amastigotes) and HepG2 (as a model for assessing systemic toxicity).
(§2) To evaluate the safety of the selected compounds, two cell lines were employed: RAW 264.7 (a mouse macrophage-derived cell line) and HepG2 (a human hepatoma cell line). Furthermore, to determine the intestinal tolerance relevant to potential oral administration, mouse intestinal organoids were prepared.
(§3) RAW 264.7 and HepG2 were routinely cultured under standard conditions. RAW 264.7 cells were maintained in RPMI medium (Gibco) supplemented with, 25 mM HEPES, 24 mM NaHCO3, 2 mM L-glutamine, mixture of antibiotics and 10% FBS. HepG2 cells were cultured in DMEM/F-12 (Gibco) and supplemented 10% of FBS. For cytotoxicity assays, 10,000 cells per well were seeded into 96-well plates and incubated overnight at 37 °C with 5% of CO2. Subsequently, 2-fold serial dilutions of the compounds were added and incubated for 72 h. Cell viability using the alamarBlue™ assay according to the manufacturer’s instructions, and fluorescence was measured with a Varioskan™ LUX microplate reader (ThermoFisher Scientific, Waltham, MA, USA). Non-linear regression analyses were performed using SigmaPlot^TM software (version 10.0) to calculate CC50. Data were obtained from at least three independent experiments performed in duplicate.

HepG2 = experiment: Cytotoxicity in HepG2 cells (alamarBlue, 72 h); settings: calculated between HepG2 cells and intramacrophagic amastigotes
Protocol: as §1, §2, §3

## COc1cc2c[n+](C)c3c4cc5c(cc4ccc3c2cc1OC)OCO5 [Nitidine]
RAW 264.7
  SI1: 3.1
HepG2
  SI2: 0.7

## COc1ccc2c(c1OC)CN(C)c1c-2ccc2cc3c(cc12)OCO3 [Dihydrochelerythrine]
RAW 264.7
  SI1: >4.8
HepG2
  SI2: >4.8

## CN1C(=O)/C(=C2/C(=O)Nc3ccccc32)c2ccccc21 [Meisoindigo]
RAW 264.7
  SI1: 1.6
HepG2
  SI2: 2.2

## COc1ccc2cc3[n+](cc2c1OC)CCc1cc2c(cc1-3)OCO2 [Berberine]
RAW 264.7
  SI1: >11.4
HepG2
  SI2: >11.4

## COc1cc2c(cc1OC)-c1c(C)c3ccc(OC)c(OC)c3c[n+]1CC2 [Dehydrocorydaline]
RAW 264.7
  SI1: >3.7
HepG2
  SI2: >3.7
